The nature of the series: Deodorant action, inherent odour (Example 2).

Among the data in USRE46698E1, “Use of cyclohexanol derivatives as antimicrobial active compounds” (MERCK PATENT GMBH, priority 2011, dated 2018) are Inherent odour values, retold here.

With `CCOC(=O)C1CCCCC1O` (stereo not shown) [Substance I-2], the Inherent odour entry is recorded as “of apple”.
